This data set deals with DprE1. The data set can be described thus: differential scanning calorimetry (DSC) of DprE1. It is filed as binding. The note with it: difference to the pure protein. (DSC measures the heat that a sample takes up or gives off during a temperature scan.)

The structures appear in SMILES notation.

By ΔTm is commonly meant the shift of the melting midpoint relative to a reference. `O=[N+]([O-])c1cc(C(F)(F)F)cc2c(=S)nc(N3CCC4(CC3)OCCO4)sc12` [SKLB-TB1001, 8-nitro-2-(1,4-dioxa-8-azaspiro[4.5]decan-8-yl)-6-(trifluoromethyl)-4H-benzo[e][1,3]thiazine-4-thione]: the ΔTm is 8.0 °C.
As for `C[C@H]1COC2(CCN(c3nc(=O)c4cc(C(F)(F)F)cc([N+](=O)[O-])c4s3)CC2)O1` [BTZ043], the ΔTm was found to be 6.9 °C.

The values are drawn from paper PMC4942819 (Scientific Reports, 2016).
